PubChem BioAssay AID1259414, Drosophila RNAi Screening Center, 2018
Aim: 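Fly genes that alter Wolbachia amount inside host cells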 (primary screen). Cells: Drosophila JW18 cells infected with Wolbachia. Reagents: long dsRNA against Drosophila genes, 0.25 µg dsRNA per well of a 384-well plate. Duration: 5 days. Treatment: cells persistently infected with Wolbachia before knock-down; no added drug. Detection: 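Automated imaging of bacterial rRNA staining divided by host cell count, reported as plate-normalised robust z-score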. Scale: Wolbachia per cell robust z: higher = more Wolbachia per host cell than the plate typical. Call rule: 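Active if absolute robust z reaches 1.5 in two or more of three replicates, leaving out multi- or no-target dsRNAs, genes unexpressed in JW18 and A1 wells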.
In all, the deposit lists about 24,000 reagents; this is a random part of those with a known target gene and a result. Of all reagents, about 1,210 (5%) were called active. 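Inactive calls also include excluded dsRNAs with several or no targets, genes unexpressed in JW18, and well A1, regardless of score.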

After knock-down of Sas-6 (Spindle assembly abnormal 6) [DRSC15061], the record shows Wolbachia per cell robust z, rep 1 = -0.065; Wolbachia per cell robust z, rep 2 = -4.32; Wolbachia per cell robust z, rep 3 = 0.177; inactive. Hmgcl (3-Hydroxymethyl-3-methylglutaryl-CoA lyase) [DRSC02051] showed Wolbachia per cell robust z, rep 1 = -3.37; Wolbachia per cell robust z, rep 2 = -1.55; Wolbachia per cell robust z, rep 3 = 0.165; active. Silencing of RpL34b (Ribosomal protein L34b) [DRSC16475] resulted in: Wolbachia per cell robust z, rep 1 = -0.327; Wolbachia per cell robust z, rep 2 = 0.461; Wolbachia per cell robust z, rep 3 = 1.06; inactive. CG8578 [DRSC20114] gave Wolbachia per cell robust z, rep 1 = -4.03; Wolbachia per cell robust z, rep 2 = -1.74; Wolbachia per cell robust z, rep 3 = 2.04; active. With knock-down of Gr58c (Gustatory receptor 58c) [DRSC04136], the record shows Wolbachia per cell robust z, rep 1 = -4.64; Wolbachia per cell robust z, rep 2 = 1.13; Wolbachia per cell robust z, rep 3 = -0.0471; inactive. Depletion of ebd2 (earthbound 2) [DRSC11682] came out at: Wolbachia per cell robust z, rep 1 = -1.55; Wolbachia per cell robust z, rep 2 = 0.107; Wolbachia per cell robust z, rep 3 = -2.93; active.

Against ebd2 (earthbound 2) [DRSC28502], the values are Wolbachia per cell robust z, rep 1 = 1.16; Wolbachia per cell robust z, rep 2 = 0.0278; Wolbachia per cell robust z, rep 3 = -1.97; inactive. For CG6696 [DRSC20004], the entry reads Wolbachia per cell robust z, rep 1 = -0.833; Wolbachia per cell robust z, rep 2 = -0.892; Wolbachia per cell robust z, rep 3 = -0.176; inactive. Against CG6696 [DRSC25648], the entry reads Wolbachia per cell robust z, rep 1 = -0.891; Wolbachia per cell robust z, rep 2 = -0.251; Wolbachia per cell robust z, rep 3 = 0.0879; inactive. CG8173 [DRSC20088] gave Wolbachia per cell robust z, rep 1 = -0.621; Wolbachia per cell robust z, rep 2 = -1.17; Wolbachia per cell robust z, rep 3 = -0.673; inactive.

A few values from the list.
Value for CG8173 [DRSC20088] under “Wolbachia per cell robust z, rep 3”: -0.673
Entry of Gr58c (Gustatory receptor 58c) [DRSC04136] in “Wolbachia per cell robust z, rep 1”: -4.64
CG6696 [DRSC20004], Wolbachia per cell robust z, rep 2: -0.892

Continued:
Silencing of janA (janus A) [DRSC16972] resulted in: Wolbachia per cell robust z, rep 1 = -0.44; Wolbachia per cell robust z, rep 2 = -3.44; Wolbachia per cell robust z, rep 3 = -0.605; inactive. janA (janus A) [DRSC26590] showed Wolbachia per cell robust z, rep 1 = -0.238; Wolbachia per cell robust z, rep 2 = -1.17; Wolbachia per cell robust z, rep 3 = -0.405; inactive. After knock-down of CG17110 [DRSC15173] the results were Wolbachia per cell robust z, rep 1 = -3; Wolbachia per cell robust z, rep 2 = 0.179; Wolbachia per cell robust z, rep 3 = -0.22; inactive. For CG1532 [DRSC20516], the values are Wolbachia per cell robust z, rep 1 = 0.583; Wolbachia per cell robust z, rep 2 = 0.766; Wolbachia per cell robust z, rep 3 = -0.0843; inactive. Lcp65Ae [DRSC11212] scored Wolbachia per cell robust z, rep 1 = 0.0254; Wolbachia per cell robust z, rep 2 = -0.127; Wolbachia per cell robust z, rep 3 = 0.215; inactive. Knock-down of Mms19 [DRSC12188] gave: Wolbachia per cell robust z, rep 1 = 0.599; Wolbachia per cell robust z, rep 2 = 0.235; Wolbachia per cell robust z, rep 3 = -0.62; inactive.

With knock-down of Mms19 [DRSC27172], the screen gave Wolbachia per cell robust z, rep 1 = 0.124; Wolbachia per cell robust z, rep 2 = 1.02; Wolbachia per cell robust z, rep 3 = 0.316; inactive. Against Cpr62Bc (Cuticular protein 62Bc) [DRSC08545], the values are Wolbachia per cell robust z, rep 1 = -2.57; Wolbachia per cell robust z, rep 2 = -0.255; Wolbachia per cell robust z, rep 3 = -2.76; inactive. For Cpr62Bc (Cuticular protein 62Bc) [DRSC26471] the deposit lists Wolbachia per cell robust z, rep 1 = -1.96; Wolbachia per cell robust z, rep 2 = -1.72; Wolbachia per cell robust z, rep 3 = -0.838; inactive. Cyp6a20 (Cytochrome P450 6a20) [DRSC07380] scored Wolbachia per cell robust z, rep 1 = 0.759; Wolbachia per cell robust z, rep 2 = -0.342; Wolbachia per cell robust z, rep 3 = -0.177; inactive. For CG4770 [DRSC15639], the values are Wolbachia per cell robust z, rep 1 = 0.138; Wolbachia per cell robust z, rep 2 = 1.56; Wolbachia per cell robust z, rep 3 = -4.15; inactive. Depletion of CG13747 [DRSC06418] resulted in: Wolbachia per cell robust z, rep 1 = 0.776; Wolbachia per cell robust z, rep 2 = 0.561; Wolbachia per cell robust z, rep 3 = 0.843; inactive.

Knock-down of CG5653 [DRSC10534] gave: Wolbachia per cell robust z, rep 1 = 0.232; Wolbachia per cell robust z, rep 2 = 0.528; Wolbachia per cell robust z, rep 3 = -0.2; inactive. After knock-down of CG5653 [DRSC29858], the screen gave Wolbachia per cell robust z, rep 1 = -3.09; Wolbachia per cell robust z, rep 2 = -1.71; Wolbachia per cell robust z, rep 3 = 0.239; inactive.
